We go through 1 substance from paper PMC9926490, “Structural Basis for Cyclosporin Isoform-Specific Inhibition of Cyclophilins from Toxoplasma gondii” (ACS Infectious Diseases, 2023).

This data set deals with C[C@H](NC(=O)CCC(=O)O)C(=O)N[C@@H](C)C(=O)N1CCC[C@H]1C(=O)N[C@@H](Cc1ccccc1)C(=O)Nc1ccc([N+](=O)[O-])cc1. The data set can be described thus: purified protein, by the assay type. As to conditions: other: substrate AAPF, 0 °C, pH 8.0.

For the substance “TgCyp18.4 H111W (Toxoplasma gondii VEG; H111W)”, the Km was 719 ± 132 µM, the kcat was 8.31 s⁻¹ and the catalytic efficiency (kcat/Km) came to 12000 M⁻¹ s⁻¹.

Usually Km stands for the substrate concentration at which the rate is half of its maximum. The term kcat denotes the number of substrate molecules converted per active site and unit of time at saturation. The term kcat/Km denotes the turnover number divided by the Michaelis constant.
